Measured values published in patent US20260384417A1, “STERYLGLUCOSIDASE INHIBITING COMPOSITIONS AND METHOD OF USING” (published 2026).

Protein sequences, listed by entry. Tags and fused reporters are not part of them. Residues count along the entry.
UniProt J9W473, 1-851: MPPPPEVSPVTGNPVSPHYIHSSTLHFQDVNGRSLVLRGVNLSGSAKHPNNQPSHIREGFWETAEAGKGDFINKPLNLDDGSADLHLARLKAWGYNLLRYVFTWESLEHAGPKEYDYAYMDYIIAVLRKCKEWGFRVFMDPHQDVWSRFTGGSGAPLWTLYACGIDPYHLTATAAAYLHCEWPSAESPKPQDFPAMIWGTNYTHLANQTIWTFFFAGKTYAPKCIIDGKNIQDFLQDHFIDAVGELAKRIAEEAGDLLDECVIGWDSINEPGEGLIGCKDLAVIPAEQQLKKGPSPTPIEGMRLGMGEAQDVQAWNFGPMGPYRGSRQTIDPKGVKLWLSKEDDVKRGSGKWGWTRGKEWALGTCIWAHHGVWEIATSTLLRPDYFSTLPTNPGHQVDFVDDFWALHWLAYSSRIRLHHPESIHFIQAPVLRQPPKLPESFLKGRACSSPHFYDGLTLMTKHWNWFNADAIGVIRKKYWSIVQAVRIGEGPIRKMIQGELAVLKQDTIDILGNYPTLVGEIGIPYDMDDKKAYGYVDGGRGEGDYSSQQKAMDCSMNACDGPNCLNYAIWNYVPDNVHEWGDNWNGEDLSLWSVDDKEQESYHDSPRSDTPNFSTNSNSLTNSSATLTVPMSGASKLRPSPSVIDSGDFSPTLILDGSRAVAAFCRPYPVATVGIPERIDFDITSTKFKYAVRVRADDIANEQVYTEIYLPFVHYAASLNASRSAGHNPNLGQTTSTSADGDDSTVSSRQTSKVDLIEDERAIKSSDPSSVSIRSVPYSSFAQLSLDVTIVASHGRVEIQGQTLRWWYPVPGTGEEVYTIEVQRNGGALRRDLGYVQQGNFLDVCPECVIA
UniProt Q4WXA7, 1-759: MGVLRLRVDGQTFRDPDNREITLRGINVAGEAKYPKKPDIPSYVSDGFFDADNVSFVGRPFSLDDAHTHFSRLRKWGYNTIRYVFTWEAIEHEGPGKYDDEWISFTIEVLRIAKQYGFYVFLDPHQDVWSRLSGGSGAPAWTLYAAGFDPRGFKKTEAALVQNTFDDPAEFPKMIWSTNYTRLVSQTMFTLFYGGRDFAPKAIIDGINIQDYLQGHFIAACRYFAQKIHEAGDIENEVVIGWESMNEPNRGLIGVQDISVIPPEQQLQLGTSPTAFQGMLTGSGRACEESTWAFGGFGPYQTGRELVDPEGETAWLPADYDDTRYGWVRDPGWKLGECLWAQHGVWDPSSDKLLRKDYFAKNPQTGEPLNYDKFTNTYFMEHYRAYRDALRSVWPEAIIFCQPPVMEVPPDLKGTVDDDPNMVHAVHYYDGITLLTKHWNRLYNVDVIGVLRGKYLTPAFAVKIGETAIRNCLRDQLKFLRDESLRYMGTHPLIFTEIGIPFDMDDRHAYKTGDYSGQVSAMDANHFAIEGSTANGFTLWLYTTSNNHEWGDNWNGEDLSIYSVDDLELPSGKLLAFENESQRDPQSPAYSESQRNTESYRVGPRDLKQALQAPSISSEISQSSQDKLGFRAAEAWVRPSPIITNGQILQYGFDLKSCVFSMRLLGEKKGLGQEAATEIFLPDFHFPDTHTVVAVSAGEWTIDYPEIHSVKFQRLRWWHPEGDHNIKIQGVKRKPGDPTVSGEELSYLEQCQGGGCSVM

Experiments:
[1] = molecular target: Sgl1 (Cryptococcus neoformans, UniProt J9W473); assay: Cn Sgl1 inhibition, HTS with resorufin β-D-glucopyranoside / IC50 of hits
Excerpt: (§1) The Cn Sgl1 and Af SglA proteins in E. coli were cloned and overexpressed for two purposes: a) to produce large quantity of recombinant protein for a high-throughput screening (HTS) assay and b) to produce crystal structure of the enzymes.
(§2) A) To set up the HTS assay, the fluorogenic glucosidase substrate resorufin β-D-glucopyranoside was used. This substrate is ideal because it has been successfully implemented in HTS assays for other glucosidases (Urban D J, et al. 2008). Initial parameters were established to ensure linearity vs. time and [enzyme]. KM and Vmax were determined to ensure we screen below the KM for competitive inhibitors. Other critical factors were assessed, including enzyme stability upon long-term storage (Pereira de Sa N, et al. 2021). Lastly, the Z-score was calculated to assess the robustness of our assay and found to be 0.94, which is an outstanding score.
(§3) Hit 1, 4-(hydroxymethyl)-1-[2-(3-methoxy-phenyl)-1,3-thiazol-5-yl]methylpiperidin-4-ol (ChemBridge ID #59928901); Hit 9, N-[(3R,5S)-5-(hydroxymethyl)-1-methylpyrrolidin-3-yl]-2-(3-oxo-3,4-dihydro-2H-1,4-benzoxazin-6-yl)acetamide (Chembridge ID #23645796); and Hit 15 (2S,4R)-4-[(6-isopropyl-1-methyl-1H-pyrazolo[3,4-d]pyrimidin-4-yl)amino]-1-methyl-2-pyrrolidinyl methanol (ChemBridge ID #86711567).

[2] = molecular target: SglA (Aspergillus fumigatus, UniProt Q4WXA7); assay: Af SglA inhibition, HTS with resorufin β-D-glucopyranoside / IC50 of hits
Excerpt: as §1, §2, §3

[3] = tested on: C. neoformans H99; assay: Sterylglucoside (ergosterol 3β-D-glucoside) accumulation in C. neoformans cells
Experimental: C. neoformans H99 was cultivated in yeast nitrogen base (YNB) broth for 24 h at 37 °C with shaking. A pellet with 5×10^8 cells was treated during 24 h with all the hits selected, according to the toxicity criteria, in various concentrations. […] After that, the resultant pellets were re-counted and used for lipid extraction. Thenceforth the total lipid was extracted and dried samples were resuspended in chloroform/methanol 2:1 ratio for LC-MS analysis. A standard erg-glc from Avanti Polar Lipids was used as a control for the calibration curve. Data were normalized to the total inorganic phosphate content in the sample.

[4] = tested on: C. neoformans; assay: Mouse model of cryptococcosis, lung and brain tissue burden; conditions: 10 mg/kg/day intraperitoneally, Hit 1 with fluconazole (F)
Experimental: FIG. 5. Hit 1 prevents dissemination of C. neoformans to the brain. CBA/J mice were inoculated with 1×10^6 Cn WT H99. After 6 hours, treatment started intraperitoneally with 10 mg/kg/day of Hit 1 or fluconazole (F). Five mice in each group where euthanized and lung CFUs were analyzed at days 3, 6, 9, and 14 after infection/treatment (A) whereas brain CFU only at day 14 (B). […] One-way ANOVA, Tukey's Multiple Comparison Test. Ns, not significant; *, p<0.05; **, p<0.001, treated versus untreated.
Hit 1 was studied to see whether it would have antifungal activity in the animal model. This was possible even without comprehensive pharmacokinetics (PK) data because these compounds have favorable “druggable” properties. For instance, based on its biophysical properties and on pkCSM software (Pires D E, Blundell T L, et al. 2015), predicted PK and toxicity properties of Hit 1 were highly favorable. Hit 1 was tested in the cryptococcal animal model, whereas Hit b in the Aspergillus animal model. For the cryptococcal model, mice were infected intranasally and 6 hours, later Hit 1 was administered intraperitoneally every day, alone or in combination with fluconazole for 14 days, and lung and brain tissue burden was examined. […] Hit 1 also synergized with fluconazole in decreasing the lung fungal burden (FIG. 5). […]

[5] = tested on: Af WT; assay: Hyphal formation / elongation in A. fumigatus; conditions: Hit b 10 and 100 μM, Hit c 10, 100 and 500 μM; 12 hours for Hit b; versus ΔsglA
Experimental: FIG. 3. Effect of SglA deletion/inhibition on hyphal formation in A. fumigatus (Af). Deletion of sglA gene in Af (ΔsglAI) dramatically effects hyphal elongation. (B) compared to WT (A). Treatment of Af WT with Hit b for 12 hours. (C) recapitulates the phenotype of Δsgl4. (D) Quantitative analysis of hyphal length of Af WT untreated (Un), Af ΔsglA-Un. and Af WT treated with different concentrations of SglA inhibitors Hit b (10 and 100 μM) or Hit c (10, 100 and 500 μM). […] Black bar in A, B and C, 20 μm. *** in D, P<0.01, by ANOVA.

[6] = molecular target: T1, Cn Sgl1 (Cryptococcus neoformans, UniProt J9W473); assay: Structural (co-crystal) analysis of inhibitor binding to Sgl1; conditions: co-crystal structure / structural analysis
Excerpt: FIG. 8. Structural analysis of Cn Sgl1 with its substrate and with its inhibitor. […] The active site is enclosed in a pocket. B) Interactions of ergosterol-3-β-glucoside with the Sgl1 active site. Glucose interacts with Lys 47 and Trp 570. The sterol component makes hydrophobic interaction with Glu 270 and Leu 431. C) Hit 1 (green) binds to Glu 270 and Trp 570. All other amino acids in the active site are shown.
Cn Sgl1 structure at 1.9 Å resolution (FIG. 8) and AfSglA structure at 2.0 Å resolution were solved (Pereira de Sa N, et al. 2022). […] In fact, Cn WT cells treated with Hit 9 accumulate more SGs than those treated with Hit 1 or Hit 15 (Pereira de Sa N, et al. 2021). Thus, Hit 9 was selected as the parent structure for generating Hit 9 derivatives against Cn Sgl1, such as SS-103 (see below). Similarly, Hit b (FIG. 9) or Hit c binds in the active site of SglA, thus preventing the binding of SGs to SglA. These structural studies have been published (Pereira de Sa N, et al. 2021 and 2022).

[7] = molecular target: T1, Cn Sgl1; assay: Sgl1 enzyme inhibition with ergosterol 3β-D-glucoside in Triton X-100 mixed micelles, HPLC; conditions: ergosterol 3β-D-glucoside substrate; compared with Hit 9
Experimental: A 50 μL volume of Cn Sgl1 wild type and 50 μL of mixed micelles of lipid and Triton X-100 in 50 mM Bis-Tris buffer with 150 mM NaCl, 5 mM βME, and 5 mM DTT were mixed and incubated at 37 °C for 20 min (erg-glc, Avanti Polar Lipids). The amount of protein was 5 ng. After the incubation period, each reaction was quenched with a 2:1 chloroform:methanol solution and the organic phase was collected and dried. Then, the lipid content was resuspended in 50 μL methanol and applied to HPLC (Agilent Technologies). Total erg-glc and ergosterol was detected using absorbance at 282 nm on a C-8 column with a flow rate of 0.5 ml/min in methanol/water 90:10 ratio buffered with 1 mM ammonium formate and 0.2% formic acid. The total area of product was normalized by the total area of its respective substrate.

[8] = tested on: A. fumigatus; assay: Sterylglucoside (ergosterol 3β-D-glucoside) accumulation in A. fumigatus cells; conditions: versus Af Δsgla
Experimental: Wild-type Af ΔKu80pyrG1a and the mutant Δsgla strain were cultivated in yeast extract-glucose medium (YAG) (2% [wt/vol] glucose, 0.5% [wt/vol] yeast extract, 1× trace elements, 1× amino acid solution, 2% [wt/vol] bacteriological agar) for 48 h at 37 °C. High-nitrate salts, trace elements, and amino acid solutions were prepared. The medium was supplemented with 1.2 g/L of uracil and uridine (UU), generating YAG+UU medium when the strain ΔKu80pyrG1a was used. After that, the conidial suspension in water was obtained, and a pellet with 1×10^7 conidia was treated in minimal medium broth pH 6.5 (MM or MM+UU) (1% [wt/vol] glucose, 1× high-nitrate salts, 1× trace elements) for 48 h at 37 °C under agitation, with the hits selected, according to the toxicity criteria, at various concentrations. […] After that, the resultant hyphal pellet was used for lipid extraction. Then, the total lipid was extracted, and dried samples were resuspended in 2:1 chloroform-methanol for liquid chromatography-mass spectrometry (LC-MS) analysis. A standard ErgGlc from Avanti Polar Lipids was used as a control for the calibration curve. Data were normalized to the total inorganic phosphate content in the sample.

[9] = tested on: A. fumigatus; assay: Mouse model of pulmonary aspergillosis, survival and lung fungal burden
Experimental: FIG. 6. Hit b prolongs survival of mice infected with Af. A) Mice were infected with 5×10^4 Af conidia. After ~1 h they received an intraperitoneal injection of Hit b 5 mg/Kg or 20 mg/Kg, which they continued daily. n=10 mice in each group. * P<0.01, Hit b 20 mg/Kg versus untreated by Kruskal-Wallis test. B) No fungal DNA was found in lungs treated with Hit b. Graphed data represent the means f SD of the fold changes in 18S fungal rDNA/mouse lung GAPDH. Statistic was determined via two-way ANOVA using Tukey's multiple Comparation Test. *, P<0.001 for Hit b-treated versus untreated. IS, Immunosuppression.
FIG. 7. B7 Prolongs survival of mice infected with Af. A) Mice were infected with 5×10^4 Af conidia. […] Statistic was determined via two-way ANOVA using Tukey's multiple Comparation Test. *, P<0.001 for B7-treated versus untreated. […]
Treatment of WT Af cells with Hit b increases SGs by ~50% compared to the increase generated by the deletion of SglA (Af Δsgla) (data not shown) (Pereira de Sa N, et al. 2023). […] One hour later, they received an intraperitoneal injection of Hit b at 5 mg/kg/day or 20 mg/kg/day and mice survival was monitored. […] The lung fungal burden was assessed by qPCR determination of the concentration of Af 18S rDNA compared to the concentration of mouse lung GAPDH at the time of death for 5 mice untreated, and at day 30 for 5 mice treated with 20 mg/Kg/day of Hit b. […]

[10] = tested on: Sgl1/SglA; assay: Substrate specificity of sterylglucosidase (biochemical and structural); conditions: role: substrate; crystal structures
Excerpt: While working on the characterization of the gene involved in the catabolism of the sphingolipids, CNAG_05607 was discovered as the gene homolog to Cn EGCrP1, which is the glucosylceramidase active at neutral and alkaline pH (shibashi Y et al. 2012). […] In fact, CNAG_05607 from either Cryptococcus neoformans (Cn) (Rella A, et al., 2015), and its homologs from Aspergillus fumigatus (Af) (Pereira de Sa N, et al. 2020), metabolize sterylglucosides (SGs) and not glucosylceramide (GlcCer), as claimed improperly by an early publication which used as a substrate a different, short chain, non-physiological GlcCer (Watanabe T, et al. 2015). […] Thus, CNAG_05607 was renamed sterylglucosidase 1 (Cn Sgl1), the first sterylglucosidase ever isolated from any living organism. (Rella A, et al., 2015).
The short chain non-physiological GlcCer (C6-GlcCer), used in the studies by Watanabe et al. does fit the active site of Sgl1 (Pereira de Sa N, et al. 2021).

[11] = read-out: IC50 against Sgl1, HTS of DiverSet-CL ChemBridge library
[12] = read-out: IC50 against SglA, HTS of DiverSet-CL ChemBridge library

SMILES | IC50 [1, 11] [nM] | IC50 ([1]; read-out: Sgl1 IC50, Table 1) [nM] | IC50 ([2]; read-out: SglA IC50, Table 1) [nM] | other results
COc1cccc(-c2ncc(CN3CCC(O)(CO)CC3)s2)c1 | ≤ 1000 | 1000 | 8000 | Increase of SGs in Cn WT cells compared to the increase generated by deletion of Sgl1 ([3]; versus Cn Δsgl1): 15-20%; Lung fungal burden (CFU), cryptococcosis, combination with fluconazole [4]: synergized with fluconazole in decreasing the lung fungal burden
CC(Cc1ccc2c(c1)OCO2)c1c(-c2ccccc2)ncn1CCO (stereo not shown) |  | 8000 | 2000 | IC50 [2, 12]: ≤ 1000 nM; Hyphal elongation in Af WT [5]: significantly inhibit hyphal elongation in Af WT similarly to ΔsglA
CN1C[C@H](NC(=O)Cc2ccc3c(c2)NC(=O)CO3)C[C@H]1CO | ≤ 1000 | 500 | 8000 | Binding to Sgl1 (structural) [6]: binds even more strongly to Sgl1 than Hit 1 or Hit 15
CN1C[C@H](NC(=O)C(c2ccc3oc4ccccc4c3c2)c2ccc3oc4ccccc4c3c2)C[C@H]1CO |  |  |  | Sgl1 enzyme inhibitory activity [7]: slightly lower enzyme inhibitory activity than Hit 9; SG accumulation in Cn WT cells ([3]; compared with other hits): significantly higher accumulation of ergosterol 3β-D-glucoside than Hit 9
Cc1[nH]c2ccc(CNc3cc(N)ncn3)cc2c1C |  | 4000 | 1000 | IC50 [2, 12]: ≤ 1000 nM; Increase of SGs in WT Af cells compared to the increase generated by deletion of SglA [8]: ~ 50%; Survival ([9]; 20 mg/kg/day intraperitoneally, started 1 hour after infection): 50%; Survival of mice infected with Af ([9]; intraperitoneal, 5×10^4 Af conidia): prolongs survival of mice infected with Af
CC(C)c1nc(N[C@@H]2C[C@@H](CO)N(C)C2)c2cnn(C)c2n1 | ≤ 1000 | 1000 | 8000 | 
CCCCCCCCCCCCC/C=C/[C@@H](O)[C@H](CO[C@@H]1O[C@H](CO)[C@@H](O)[C@H](O)[C@H]1O)NC(=O)CCCCC |  |  |  | Fit / interaction with the active site of Sgl1/SglA [10]: does fit the active site of Sgl1

Like-named read-outs stand apart in the source and are kept apart here.
